Reference: US10596272B2, “Vaccines against Streptococcus pneumoniae serotype 5” (dated 2020)

Key:
[1] = test system: IgG of pooled sera of humans who had received a pneumococcal CPS-based vaccine; test: Glycan microarray screening with pooled sera of human pneumococcal CPS vaccine recipients; details: for IgG of immunized humans against the synthetic glycan: human pneumococcal serum dilution 1:100, FIG. 5A
[2] = test system: ST5 type sera raised in rabbit; test: Glycan microarray II with ST5 type sera; details: rabbit type 5 sera, dilution 1 in 100; FIG. 8B
[3] = test system: structures printed on slides and native polysaccharide; details: as CRM197 conjugates 58*c and 87*
[4] = test system: anti-SP5 specific typing sera IgG; test: Glycan microarray screening with commercial anti-SP5 specific rabbit typing serum; details: rabbit typing serum dilution 1:1000; FIG. 4A
CSP-5 polysaccharide = test: ELISA end point titer of sera of rabbits immunized with ST5 glycan conjugates; details: day 35; compared to tetrasaccharide 33* or conjugate 58*c
[5] = test system: antibodies produced during immunization; test: Recognition of reference substructures by antibodies produced during immunization; details: substructures of SP5 CPS without pneumosamine

With `CC(=O)NC1C(O)C(=O)C(C)O[C@H]1OCN` (stereo partly shown) the “IgG of immunized humans against the synthetic glycan” value (“IgG of immunized humans” for short) [1] was “not detected at all”.

In the case of `CC(=O)NC1C(O)[C@H](O)C(C)O[C@H]1OC1C(O)[C@H](O)C(C(=O)O)O[C@H]1OC1C(NC(C)=O)[C@H](OC2C(NC(C)=O)[C@H](OCN)OC(C)[C@@H]2O)OC(C)[C@H]1O` (stereo partly shown), the “anti-glycan IgG levels after pre-incubation of human sera with natural SP5 CPS” value ([1]; SP5 CPS 5 μg/mL, FIG. 5B) was “significant reduction”, the “IgG of immunized humans” value [1] was “predominantly” and the “recognition by ST5 type sera” value [2] was “high affinity”. The immunogenicity in rabbit [3] was “immunogenic”, the “binding of printed glycan by specific anti-SP5 IgG” value (from here on “binding of printed glycan”) [4] was “bound by specific anti-SP5 IgG” and the “level of IgG binding, 33* and 27* compared with each other” value [4] was “comparable levels”.

In the case of `CC(=O)NC1C(O[C@@H]2OC(C)[C@@H](O)C(O)C2NC(C)=O)C(=O)C(C)O[C@H]1OCN` (stereo partly shown), the “IgG of immunized humans” value [1] was “very low levels”.

For `CC(=O)NC1[C@H](OC2[C@H](O[C@@H]3C(NC(C)=O)[C@H](O[C@@H]4C(NC(C)=O)[C@H](OCCCCCN)OC(C)[C@@H]4O)OC(C)[C@H]3O[C@@H]3OC(CO)[C@@H](O)[C@H](O)C3O)OC(C(=O)O)[C@@H](O)[C@@H]2O)OC(C)[C@@H](O)[C@@H]1O` (stereo partly shown), the “recognition by ST5 type sera” value [2] was “high affinity”, the immunogenicity in rabbit [3] was “immunogenic” and the “immunogenicity compared between groups (antibody response as fold change)” value (CSP-5 polysaccharide) was “more immunogenic”.

With “5-amino-pentanyl β-D-glucopyranosyl-(1→3)-2-N-acetyl-α-L-fucosaminopyranoside” the “IgG of immunized humans” value [1] was “very low levels”.

With `CC(=O)NC1C(O)[C@H](O)C(C)O[C@H]1OC1C(NC(C)=O)[C@H](OCN)OC(C)[C@@H]1O` (stereo partly shown) the “IgG of immunized humans” value [1] was “low levels”.

In the case of `CC(=O)NC1C(O)[C@H](O)C(C)O[C@H]1OC1C(O)[C@H](O)C(C(=O)O)O[C@H]1OCN` (stereo partly shown), the “IgG of immunized humans” value [1] was “lower levels”, the “binding of printed glycan” value [4] was “bound by specific anti-SP5 IgG” and the “level of IgG binding, 33* and 27* compared with each other” value [4] was “comparable levels”.

With `CC(=O)NC1C(O[C@@H]2OC(C(=O)O)[C@@H](O)C(O)C2O)C(O[C@@H]2OC(CO)[C@@H](O)C(O)C2O)[C@H](C)O[C@H]1OC1C(NC(C)=O)[C@H](OCCCCCN)OC(C)[C@@H]1O` (stereo partly shown) the “recognition by the antibodies produced during immunization” value [5] was “not recognized”.

In the case of `CC(=O)NC1C(O[C@@H]2OC(C(=O)O)[C@@H](O)C(O)C2O)C(O[C@@H]2OC(CO)[C@@H](O)C(O)C2O)[C@H](C)O[C@H]1OCCCCCN` (stereo partly shown), the “recognition by the antibodies produced during immunization” value [5] was “not recognized”.

For “5-amino-pentanyl β-D-glucopyranosyluronate-(1→4)-2-N-acetyl-α-L-fucosaminopyranoside”, the “IgG of immunized humans” value [1] was “low levels”.

For `CC(=O)NC1C(O)[C@H](O)C(C)O[C@H]1OCCCCCN` (stereo partly shown), the “IgG of immunized humans” value [1] was “very low levels”.

In the case of `CC(=O)NC1C(O)[C@@H](O)C(C)O[C@H]1OCN` (stereo partly shown), the “IgG of immunized humans” value [1] was “not detected at all”.

For `CC(=O)NC1[C@H](OCCCCCN)OC(C)[C@@H](O)[C@@H]1O` (stereo partly shown), the “IgG of immunized humans” value [1] was “lower levels” and the “binding of printed glycan” value [4] was “bound by specific anti-SP5 IgG”.

In the case of `CC(=O)NC1[C@H](OC2[C@H](O[C@@H]3C(NC(C)=O)[C@H](O[C@@H]4C(NC(C)=O)[C@H](OCCCCCN)OC(C)[C@H]4O)OC(C)[C@H]3O[C@@H]3OC(CO)[C@@H](O)[C@H](O)C3O)OC(C(=O)O)[C@@H](O)[C@@H]2O)OC(C)[C@@H](O)[C@@H]1O` (stereo partly shown), the “recognition by ST5 type sera” value [2] was “high affinity”.

With `CC(=O)NC1[C@@H](OCCCCCN)OC(C)[C@@H](O)[C@@H]1O` (stereo partly shown) the “IgG of immunized humans” value [1] was “very low levels”.
